Data as given in article PMC8815882, “Screening the pandemic response box identified benzimidazole carbamates, Olorofim and ravuconazole as promising drug candidates for the treatment of eumycetoma” (PLoS Neglected Tropical Diseases, 2022).

System: M. mycetomatis genome strain MM55
Experiment: CLSI M38-A2 based in vitro susceptibility screening (XTT or resazurin), growth at fixed concentration
Type: cell-based, Madurella mycetomatis

## CCCn1c(=O)c2c(nc(Cc3ccccc3)n2CCN(CC)CCO)n(CCc2ccc(N)cc2)c1=O
25 uM, mean of three, M. mycetomatis MM55
  Percentage survival at 25um, 25 uM mean: 74.0995%
25 uM, replicate A, M. mycetomatis MM55
  Percentage survival at 25um, 25 um A: 94.6375%
25 uM, replicate B, M. mycetomatis MM55
  Percentage survival at 25um, 25 uM B: 54.6912%
25 uM, replicate C, M. mycetomatis MM55
  Percentage survival at 25um, 25 uM C: 72.9699%
100 uM, mean of three, M. mycetomatis MM55
  Percentage survival at 100um, 100 uM mean: 51.2803%
100 uM, replicate 1, M. mycetomatis MM55
  Percentage survival at 100um, 100 uM A (first replicate column): 0.9033%
100 uM, replicate 2, M. mycetomatis MM55
  Percentage survival at 100um, 100 uM A (second replicate column): 68.7428%
100 uM, replicate 3, M. mycetomatis MM55
  Percentage survival at 100um, 100 uM A (third replicate column): 84.195%

This is a selection: effects in other tests are not listed, and their absence says nothing.
